Measured values from several laboratories, pooled; numbers as filed in NIAID ChemDB.

All rows: whole-cell or culture tests; agent: Cryptococcus neoformans; read-out: MIC

Rows are shuffled and stem from different studies.

{"compound": "CCCCCCCCCCCCCC(=O)NC(CCCN)C(=O)NC(CCCN)C(N)=O", "strain": "ATCC 2344", "method": "broth dilution", "result": "25 µg/mL"}
{"compound": "Oc1ccccc1N=Cc1cccc(O)c1O", "strain": "WP", "method": "broth dilution", "result": "2.8 µg/mL"}
{"compound": "Fc1ccc(Cc2nc(CN3CCc4sccc4C3)n[nH]2)cc1", "strain": "NCIM576", "method": "agar", "result": "37.5 µg/mL"}
{"compound": "CC1C(=O)N(CCCc2ccccc2)C(=O)C1C", "strain": "ATCC 32264", "method": "broth dilution / turbidity", "result": "125 µg/mL"}
{"compound": "O=C1/C(=C/c2ccc(O)c(O)c2)CCc2ccccc21", "strain": "93/V", "result": "100 µg/mL"}
{"compound": "C[C@@H]1CC(=O)N(c2ccccc2)C1=O", "strain": "ATCC 32264", "method": "broth dilution / turbidity", "result": "62.5 µg/mL"}
{"compound": "Clc1ccc(-c2n[nH]c(CN3CCc4sccc4C3)n2)cc1", "strain": "NCIM576", "method": "agar", "result": "100 µg/mL"}
{"compound": "C[C@@H]([C@@](O)(Cn1cncn1)c1ccc(F)cc1F)S(C)(=O)=O", "strain": "R718 (AZOLE-R)", "result": ">1000 µM"}
{"compound": "COc1ccc(/C=C2\\CSc3ccc(Cl)cc3C2=O)cc1OC", "strain": "25", "result": "6 µg/mL"}
{"compound": "COc1ccccc1-c1c(C#N)c(OC)nc2c1CSc1ccccc1-2", "strain": "93/V", "result": "25 µg/mL"}
{"compound": "COc1ccc2c(c1)C(=O)/C(=C/c1ccc3ccccc3c1)CO2", "strain": "93/V", "result": "12.5 µg/mL"}
{"compound": "Cn1nc(Cc2ccc(Cl)cc2)c2ccccc2c1=O", "strain": "Clinical isolate (IM 972751)", "method": "broth dilution", "result": "62.5 µg/mL"}
{"compound": "COc1ccc(-c2c(C#N)c(OC)nc3c2CSc2ccc(Cl)cc2-3)cc1O", "strain": "93/V", "result": "50 µg/mL"}
{"compound": "Cc1ccc(N2C(=O)CC(C)C2=O)cc1", "strain": "ATCC 32264", "method": "broth dilution / turbidity", "result": "62.5 µg/mL"}
{"compound": "CCCCCCCCCCCCCCCCCC(=O)NC(CCCN)C(N)=O", "strain": "ATCC 2344", "method": "broth dilution", "result": ">100 µg/mL"}
{"compound": "C[C@@H](n1ncn(-c2ccc(OCC(F)(F)C(F)F)cc2)c1=O)[C@](O)(Cn1cncn1)c1ccc(F)cc1F", "strain": "DUMC 125.96", "result": "≤0.0313 µg/mL"}
{"compound": "CCCCCCCCCCCC(=O)NC(CCCN)C(=O)NC(CCCN)C(=O)NC(CCCN)C(=O)NC(CCCN)C(=O)NC(CCCN)C(N)=O", "strain": "ATCC 2344", "method": "broth dilution", "result": "25 µg/mL"}
{"compound": "N#CC1=C(N)OC2=C(CSc3ccccc32)C1c1cccc2ccccc12", "strain": "93/V", "result": "25 µg/mL"}
{"compound": "Cc1ccccc1N1C(=O)CC(C)C1=O", "strain": "ATCC 32264", "method": "broth dilution / turbidity", "result": "125 µg/mL"}
{"compound": "COc1ccc(/C=C2\\CCc3ccccc3C2=O)cc1", "strain": "Farwania", "result": "100 µg/mL"}
{"compound": "CCCCCCCCCC(=O)NC(CCCN)C(=O)NC(CCCN)C(=O)NC(CCCN)C(N)=O", "strain": "ATCC 2344", "method": "broth dilution", "result": "100 µg/mL"}
{"compound": "CCCOc1nc2c(c(-c3ccc4c(c3)OCO4)c1C#N)CSc1ccc(Cl)cc1-2", "strain": "93/V", "result": "50 µg/mL"}
{"compound": "CCC(C)CC(C)CCCCCCCCC(=O)N[C@H]1C[C@@H](O)[C@H](NCCN)NC(=O)[C@@H]2[C@@H](O)CCN2C(=O)[C@H]([C@H](O)CCN)NC(=O)[C@H]([C@H](O)[C@@H](O)c2ccc(O)cc2)NC(=O)[C@@H]2C[C@@H](O)CN2C(=O)[C@H]([C@@H](C)O)NC1=O", "strain": "CBS 131", "method": "broth dilution", "result": "16 µg/mL"}
{"compound": "C[C@@H]1CC(=O)N(c2ccc(F)cc2)C1=O", "strain": "ATCC 32264", "method": "broth dilution / turbidity", "result": "62.5 µg/mL"}
{"compound": "C=CC[C@@H]1/C=C(/C)C[C@H](C)C[C@H](OC)[C@H]2O[C@@](O)(C(=O)C(=O)N3CCCC[C@H]3C(=O)O[C@H](/C(C)=C/[C@@H]3CC[C@@H](O)[C@H](OC)C3)[C@H](C)[C@@H](O)CC1=O)[C@H](C)C[C@@H]2OC", "strain": "H99", "result": "<0.09 µg/mL"}
{"compound": "c1ccc(C(c2ccccc2)c2n[nH]c(CN3CCc4sccc4C3)n2)cc1", "strain": "NCIM576", "method": "agar", "result": ">200 µg/mL"}
{"compound": "CC1CC(=O)N(Cc2ccccc2)C1=O", "strain": "ATCC 32264", "method": "broth dilution / turbidity", "result": "62.5 µg/mL"}
{"compound": "CC(C)CC1NC(=O)CC(CCCCCCCCC(C)O)OC(=O)C(CC(C)C)NC(=O)C(CC(C)C)NC(=O)C(CC(C)C)NC(=O)C(C(C)C)NC(=O)C(CC(=O)O)NC(=O)C(CC(C)C)NC1=O", "strain": "MTCC 4406", "method": "absorbance", "result": "2 µg/mL"}
{"compound": "S=C=NCCCCCCCN=C=S", "strain": "CNH99", "method": "visual reading", "result": "<1 µg/mL"}
{"compound": "N#CC1=C(c2ccccc2)C2=C(NC1O)c1ccccc1SC2", "strain": "Farwania", "result": "12.5 µg/mL"}
{"compound": "COc1ccc2c(c1)C(=O)/C(=C/c1ccc3c(c1)OCO3)CS2", "strain": "93/V", "result": "25 µg/mL"}
{"compound": "O=C(c1ccccc1)N1CCC(n2cc(-c3noc(=O)[nH]3)nn2)CC1", "strain": "NCIM576", "method": "agar", "result": "40 µg/mL"}
{"compound": "Oc1ccccc1N=Cc1ccc(F)cc1", "strain": "27JF", "method": "broth dilution", "result": "16 µg/mL"}
{"compound": "COc1nc2c(c(-c3ccc4c(c3)OCO4)c1C#N)CSc1ccccc1-2", "strain": "93/V", "result": "6 µg/mL"}
{"compound": "c1ccc(-c2n[nH]c(CN3CCc4sccc4C3)n2)cc1", "strain": "NCIM576", "method": "agar", "result": "150 µg/mL"}
{"compound": "CC1=CC[C@H]2C[C@@H]1C2(C)C", "method": "agar diffusion / agar", "result": "117 µg/mL"}
{"compound": "COc1ccc(/C=C2\\COc3ccccc3C2=O)cc1OC", "strain": "25", "result": "25 µg/mL"}
{"compound": "C=C1CC[C@H]2C[C@@H]1C2(C)C", "method": "agar diffusion / agar", "result": ">20000 µg/mL"}
{"compound": "COc1ccc(Cc2nc(CN3CCc4sccc4C3)n[nH]2)cc1", "strain": "NCIM576", "method": "agar", "result": "87.5 µg/mL"}
{"compound": "CC[C@@H]([C@H](C)O)n1ncn(-c2ccc(N3CCN(c4ccc(OC[C@@H]5CO[C@@](Cn6cncn6)(c6ccc(F)cc6F)C5)cc4)CC3)cc2)c1=O", "strain": "T-1", "result": "0.125 µg/mL"}
{"compound": "C[C@@H]1C(=O)N(Cc2ccccc2)C(=O)[C@@H]1C", "strain": "ATCC 32264", "method": "broth dilution / turbidity", "result": "62.5 µg/mL"}